# Reference: patent US20240166738A1 (priority 2021, published 2024)
# System: […] cells
# Assay: microbe, parasite or virus in culture
# Details: Severe acute respiratory syndrome coronavirus 2, NCI-H1975, in Mesocricetus auratus, 72 h, read-out: […]
compound,measurement,value
"CCC(CC)COC(=O)[C@H](C)N[P@](=O)(OC[C@H]1O[C@@](C#N)(c2ccc3c(N)ncnn23)[C@H](O)[C@@H]1O)Oc1ccccc1 [Remdesivir, remdesivir]",viability at 1 µM,75 to 80%
